Measurements reported in PubChem BioAssay AID1259414 (Drosophila RNAi Screening Center, 2018)
In all, the deposit lists about 24,000 reagents; shown is a random part of those that have a named target and a result. Over the whole deposit, about 1,210 (5%) are marked active. 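Inactive calls also include excluded dsRNAs with several or no targets, genes unexpressed in JW18, and well A1, regardless of score.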 A plus sign joins genes that one reagent is predicted to hit.

Screen: 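Fly genes that alter Wolbachia amount inside host cells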 (primary screen)
System: Drosophila JW18 cells infected with Wolbachia
Knock-down reagent: long dsRNA against Drosophila genes, 0.25 µg dsRNA per well of a 384-well plate
Duration: 5 days
Treatment: cells persistently infected with Wolbachia before knock-down; no added drug
Measurement: 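Automated imaging of bacterial rRNA staining divided by host cell count, reported as plate-normalised robust z-score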
Direction: Wolbachia per cell robust z: higher = more Wolbachia per host cell than the plate typical
Call rule: 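Hit when robust z is 1.5 or more, or -1.5 or less, in at least two of three replicates; excludes dsRNAs with several or no targets, genes not expressed in JW18 and well A1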

gene | dsRNA | Wolbachia per cell robust z, rep 1 | Wolbachia per cell robust z, rep 2 | Wolbachia per cell robust z, rep 3 | Outcome
Mf | DRSC16120 | 0.612 | -0.452 | -0.122 | inactive
CG4293 | DRSC18557 | 0.341 | -1.09 | 0.374 | inactive
Tsp2A | DRSC18584 | 0.785 | 0.764 | -0.0311 | inactive
CG31735 | DRSC01518 | 1.11 | 0.382 | -0.163 | inactive
CG31735 | DRSC30072 | -0.435 | -0.435 | -0.0114 | inactive
Rsph3 | DRSC09696 | -0.783 | -0.244 | 0.335 | inactive
Rsph3 | DRSC10211 | -1.78 | -0.737 | -4.54 | inactive
Rsph3 | DRSC26917 | -1.78 | -0.788 | -0.914 | inactive
Prx4 | DRSC08668 | 0.22 | 0.419 | 0.367 | inactive
Prx4 | DRSC24543 | -2.08 | -1.21 | -2.25 | active
CG9269 | DRSC16465 | -2.54 | 0.0721 | -1.25 | inactive
Adck1 | DRSC04394 | -0.0456 | -1.74 | 0.0989 | inactive
CG12576 | DRSC20621 | -0.176 | 0.495 | -0.121 | inactive
CG12576 | DRSC26254 | -0.915 | 0.0912 | -0.394 | inactive
CG34248 | DRSC09426 | -1.93 | -0.845 | -1.7 | inactive
CG18476 | DRSC15281 | -3.24 | -0.433 | -0.679 | inactive
Pngl | DRSC04914 | 0.912 | 0.939 | 0.00326 | inactive
spn-D | DRSC22641 | 0.369 | 0.601 | -0.983 | inactive
CG42763 | DRSC41415 | -0.899 | 0.34 | 0.182 | inactive
nAChRbeta2 | DRSC17010 | 1.15 | 1.2 | -0.0912 | inactive
CG4286 | DRSC04459 | 0.119 | -4.07 | -0.286 | inactive
CG4286 | DRSC24458 | -1.3 | 0.0929 | -1.77 | inactive
CG15202 | DRSC19649 | 0.637 | 0.969 | -0.436 | inactive
CG30324 | DRSC22655 | 0.181 | -1.88 | 0.969 | inactive
CG30324 | DRSC26815 | -1.11 | -1.05 | -1.02 | inactive
pelo | DRSC03588 | 0.277 | 0.937 | 0.0662 | inactive
Tim17a2 | DRSC12252 | 0.709 | 0.341 | 0.37 | inactive
Tim17a2 | DRSC23837 | 0.725 | -0.349 | 0.65 | inactive
CG8677 + CG31626 | DRSC01838 | 0.544 | -7.51 | 0.741 | inactive
CG8677 + CG31626 | DRSC21844 | 0.819 | 0.846 | 0.934 | inactive
Muc4B | DRSC18062 | 0.46 | 0.188 | 1.96 | inactive
Muc4B | DRSC18063 | -0.257 | 0.885 | 0.286 | inactive
Muc4B | DRSC29148 | 1.45 | -0.228 | 1.8 | inactive
robl62A | DRSC08153 | -1.14 | -0.0534 | -0.181 | inactive
CG33673 | DRSC38938 | -0.617 | -1.54 | -0.641 | inactive
CG4294 | DRSC04460 | 0.89 | 0.592 | 0.531 | inactive
Pdha | DRSC18413 | -0.111 | 0.585 | 0.0662 | inactive
Pdha | DRSC27138 | -0.0232 | -1.62 | -0.761 | inactive
CG14022 | DRSC02352 | 0.373 | 0.477 | 0.0824 | inactive
CG14022 | DRSC27400 | 0.576 | 1.36 | 0.357 | inactive
CG14022 | DRSC41584 | -2.11 | -0.432 | 0.212 | inactive
Sobp | DRSC07312 | -0.653 | 0.731 | 0.121 | inactive
Sobp | DRSC24534 | 0.744 | 1.69 | 1.2 | inactive
CG13002 | DRSC19521 | -0.372 | -0.673 | 0.518 | inactive
CG13002 | DRSC29478 | 0.0349 | 0.16 | -0.253 | inactive
CG15515 | DRSC15054 | 0.876 | 0.532 | 0.114 | inactive

Part of the list above, reduced to “Wolbachia per cell robust z, rep 2”.
Sobp [DRSC24534] = 1.69
CG13002 [DRSC19521] = -0.673
CG13002 [DRSC29478] = 0.16
CG15515 [DRSC15054] = 0.532
